The assay deals with Replicase polyprotein 1ab (Severe acute respiratory syndrome coronavirus 2) (UniProt P0DTD1). Nature of the assay: Inhibition of SARS-CoV2 PLpro cleavage activity using 2Ub-K48 as substrate incubated overnight by SYPRO Ruby staining based SDS-PAGE analysis.

Structures are written as SMILES. Calls of active or inactive are those of the source. The calls are words filed in the database; no cut-off is given here.

In the case of `Cc1ccc(N)cc1C(=O)N[C@H](C)c1cccc2ccccc12`, the inhibition entry was “Active”.

(Values after ChEMBL document CHEMBL5500399, “Design, Synthesis, and Biological Evaluation of 1,2,4-Oxadiazole Derivatives Containing an Aryl Carboxylic Acid Moiety as Potent Sarbecovirus Papain-like Protease Inhibitors” (J Med Chem, 2024).)
